12 molecules from the supplement of paper PMC9931576 can be followed below.

Human monoclonal antibodies against the spike receptor-binding domain (heavy:light variable regions). IC50 against pseudoviruses bearing the spike of naturally observed variants; lower = stronger; >10 µg/ml means not reached at the top dose. No active / inactive call. The stated detection limit is 0.0005 µg/ml; values near or below 0.001 µg/ml lie at the floor of the assay. A value given as a limit tells only on which side of the number the result lay.

The labels stand for the following.
B1: BD56-080 (protein)
chain 1: QVQLVQSGAEVKKPGSSVKVSCKASGGTFSSYSITWVRQAPGQGLEWMGRIIPILEIPNYAQKFQGTVTITADKSTSTAYLELRSLRSEDTAVYYCVREVGYSSMSSSYYFDNWGQGTLVTVSS
chain 2: QSVLTQPPSVSGAPGQRVTISCTGSSSNIGAGYDVHWYQQLPGTAPKLLIYANTNRPSGVPDRFSGSKSGTSVSLVITGLQAEDELDYYCQSYDSSLSGSVFGGGTKLTVL
B2: BD56-082 (protein)
chain 1: QVQLQESGPGLVKPSQTLSLTCTVSGGSISSGRYFLNWIRQPAGKGLEWIGRIYGNGSTNCNPSLKSRVTISVDTSKNQFSLKLSSVTAADTAVYYCARDCFPDYDLFTGYYDDFYFDLWGRGTLVTVSS
chain 2: SYELTQPPSVSVSPGQTARITCSGDALPKQYTYWYLQKPGQAPIVVMYKDSERPSGIPERFSGSSSGTTVTLTISGVQAEDEADYYCQSADSSGVVFGGGTKLTVL
B3: BD56-064 (protein)
chain 1: EVYLVESGGGLVKPGGSLRLSCAASGFTFSHYGMNWVRQAPGKGLEWVSSISGGSSFIHYADSVRGRFTISRDNAKKSLYLHMNRLRAEDTAVYYCAKDLGSRDSSTWYDPGLNYDGMDVWGQGTTVTVS
chain 2: QSVLTQPPSASGTPGQRVTISCSGSSSNIGSSSVNWYQQLPGTAPKLLIYSDNRRPSGVPDRFSGSKSGTSASLAISGLQTGDEADYYCATWDDSLNGLWVFGGGTKLTVL
B4: BD56-063 (protein)
chain 1: EVQLVESGGGLVQPGGSLRLSCAASGFTFRTYDMHWVRQGTGKGLEWVSAIGTAGDTYYPDSVKGRFTISRENAKNSLYLQMNSLRAGDTAVYYCARGVSLTGYYNPGDYYYYMDVWGKGTMVTVSS
chain 2: DIQMTQSPSSLSASVGDRVTITCRASQSIRTYLNWYQQKPGNAPKLLIYSASSLQGGVPSRFSGSGSGTDFTLTISSLQPEDFATYHCQQSYSTPPWTFGQGTKVEI
B5: BD56-045 (protein)
chain 1: EVQLVESGGGLVEPGRSLRLTCAASGFTFDDYAMHWVRQVPGKGLEWVSGISWNGGIIGFADSVKGRFVISRDNAKNSLYLAMRSLRADDTALYYCTKDIQFHGESAFDSWGQGTQVTVSS
chain 2: SYVLTQTPSVSVAPGQTARITCGGNNIGSKSVHWYQQKPGQAPGLVVYDGTDRPSGIPERFSGSNSGNTATLTITRVEAGDEADYFCQVWDSNSDHYVFGTGTKVTVL
B6: BD56-070 (protein)
chain 1: EVQLVESGGGLVQPGRSLRLSCAASGFTFDDYAMHWVRQAPGKGLEWVSGSSWNSGTIGYAESVKGRFIISRDNAKNSLYLQMIRLRAEDTALYYCAKDFRGSYREGYSMDVWGQGTTVTVSS
chain 2: QSALTQPASVSGSPGQSITISCTGASSDIGTYNYVSWYQQHPGKAPKLMISDVSKRPSGVSNRFSGSKSGDTASLTISGLQTEDEADYYCSSYTSTSTVLFGGGTKLTVL
B7: Ehling_mAb-64 (protein)
chain 1: EVQLVETGGGLIQPGGSLRLSCAASGFTVSSNYMSWVRQAPGKGLEWVSVIYSGGSTYYADSVKGRFTISRDNSKNTLYLQMNSLRAEDTAVYYCARDLHIYGMDVWGQGTTVTVSS
chain 2: DIQMTQSPSSVSASVGDRVTITCRASQGISSWLAWYQQKPGKAPKLLIYAASSLQSGVPSRFSGSGSGTDFTLTISSLQPEDFATYYCQQANSFPNFGGGTKVEIK
B8: BD56-057 (protein)
chain 1: QVQLVESGGGVVQPGRSLRLSCAASGFTLSSYDMHWVRQAPGKGLEWVALISSDGSDKFYADSVKGRFTISRDNSKNTLYLQMNSLRPEDMALYHCAKDTPADYSTSVVLDSWGQGTLVTVSS
chain 2: DILMTQSPSSLSASVGDRVTITCRARQNIRTFLNWYQVKPGKAPKLLIYAASSVPSGVPSRFSGSGSGTDFTLTISSLQPEDFATYYCQQSYSTPSITFGPGTRLEIK
B9: BD56-073 (protein)
chain 1: EVLLLESGGALVQPGESLRLSCAASGFSFSSYAMSWVRQAPGKGLEWVSAISGSGGLKYYADSVKGRFTLSRDNSKNTLYLQMNSLRAEDTAVYYCAREESHRETGVPNWFDPWGQGTLVTVSS
chain 2: DIQMTQSPSSLSASVGDRVTITCRASQSISSSLNWYQQRPGNAPKLLIYAASSLQSGVPSRFSGSGSGTDFTLTISSLQPEDFATYYCQQSYITPPWTFGQGTKVEIK
B10: BD56-068 (protein)
chain 1: EVQLLESGGGLIQPGGSLRLSCAASGFSFNLYAMTWVRQAPGKGLEWVSTMSGSGDSTHYADSVKGRFTISRDNSKSTLFLQMNSLRAEDTAIYYCAKNIDMSFFDYWGQGTLVTVSS
chain 2: SYVLTQPPSVSVAPGKTARITCGGNKIGSQSVHWYRQKPGQAPLVVIYYDTDRPSGIPERFSGSNSGNTATLTISRVEAGDEADYYCQVWDSSSDQPIFGGGTKLTVL
B11: BD56-066 (protein)
chain 1: EVQLVESGGGLVQPGRSLRLSCAASGFSFDDYAMHWVRQAPGKGLEWVSGVTWNSGTIGYADSVKGRFIISRDNAKNSLYLQMMSLRAEDTAFYFCAKDGSATKVLWFNPENYYFESWGQGTPVTVSS
chain 2: QSVLTQPPSVSAAPGQKVTISCSGSSSNIGNNYVSWYQHLPGTTPKLLIYDNNKRPSGIRDRFSGSKSGTSATLGITGLQTGDEADYYCGTWDSSLSVYVFGSGTKVTVL
B12: BD56-078 (protein)
chain 1: QVQLVESGGGVVQPGRSLRLSCAASKFTFSNFALHWVRQAPGKGLDWVAVISFDGNNNYYADSVKGRFTISRDNSKNTLYLEMNSLRAEDTAVYFCARGDYYGSGSYYNPLPNFDYWGQGALVTVSS
chain 2: QSVLTQPPSASGTPGQGVTISCSGSSSNIGSYSVNWYQQLPGTAPKLLIYSDNQRPSGVPDRISGSKSGTSASLAISGLQSGDEADYYCAAWDDSLNGWVFGGGTKLTVL

In the first experiment the target is SARS-CoV-2 Omicron BA.1 spike pseudovirus. Kind of experiment: pseudovirus neutralization IC50; higher = weaker neutralization. Here is the method:
(§1)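 Single-round VSV luciferase pseudovirus mixed with antibody dilutions for 1 h and put on Huh-7 cells for about a day; IC50 from the dose curve.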
For the molecule B1, the “pseudovirus neutralization IC50” value was 0.743 µg/mL.

Take B2: the “pseudovirus neutralization IC50” value was > 10 µg/mL.

Take B3: the “pseudovirus neutralization IC50” value is 0.0968 µg/mL.

B4: the “pseudovirus neutralization IC50” value is > 10 µg/mL.

As to B5, the “pseudovirus neutralization IC50” value turned out to be 0.0198 µg/mL.

Regarding B6, the “pseudovirus neutralization IC50” value was determined as 0.0798 µg/mL.

On to B7, for which the “pseudovirus neutralization IC50” value is > 10 µg/mL.

Take B8: the “pseudovirus neutralization IC50” value is > 10 µg/mL.

For B9, the “pseudovirus neutralization IC50” value was determined as 3.58 µg/mL.

Take B10: the “pseudovirus neutralization IC50” value was determined as 1.75 µg/mL.

For the molecule B11, the “pseudovirus neutralization IC50” value worked out at 0.0171 µg/mL.

With B12, the “pseudovirus neutralization IC50” value is 0.0311 µg/mL.

For a further experiment, the target named is SARS-CoV-2 Omicron BA.2 spike pseudovirus. The description is as above. On the procedure: as §1
As for B1, the “pseudovirus neutralization IC50” value was found to be 0.606 µg/mL.

Turning to B2, the “pseudovirus neutralization IC50” value is > 10 µg/mL.

B3: the “pseudovirus neutralization IC50” value stood at 0.0886 µg/mL.

Regarding B4, the “pseudovirus neutralization IC50” value is > 10 µg/mL.

As for B5, the “pseudovirus neutralization IC50” value stood at 0.0161 µg/mL.

As to B6, the “pseudovirus neutralization IC50” value was found to be 0.069 µg/mL.

As to B7, the “pseudovirus neutralization IC50” value is > 10 µg/mL.

B8: the “pseudovirus neutralization IC50” value was > 10 µg/mL.

For B9, the “pseudovirus neutralization IC50” value was found to be 6.05 µg/mL.

Take B10: the “pseudovirus neutralization IC50” value stood at 1.99 µg/mL.

For the molecule B11, the “pseudovirus neutralization IC50” value turned out to be 0.0113 µg/mL.

Take B12: the “pseudovirus neutralization IC50” value is 0.0132 µg/mL.

In the next experiment the target is SARS-CoV-2 Omicron BA.2.75 spike pseudovirus. The description is as above. Here is the method:
as §1
For B1, the “pseudovirus neutralization IC50” value came out at 0.864 µg/mL.

As to B2, the “pseudovirus neutralization IC50” value was > 10 µg/mL.

As for B3, the “pseudovirus neutralization IC50” value came to 0.0336 µg/mL.

For the molecule B4, the “pseudovirus neutralization IC50” value is > 10 µg/mL.

For the molecule B5, the “pseudovirus neutralization IC50” value is 0.0193 µg/mL.

On to B6, for which the “pseudovirus neutralization IC50” value worked out at 0.0792 µg/mL.

On to B7, for which the “pseudovirus neutralization IC50” value was > 10 µg/mL.

On to B8, for which the “pseudovirus neutralization IC50” value was > 10 µg/mL.

In the case of B9, the “pseudovirus neutralization IC50” value turned out to be 4.42 µg/mL.

With B10, the “pseudovirus neutralization IC50” value stood at 1.76 µg/mL.

On to B11, for which the “pseudovirus neutralization IC50” value was 0.0122 µg/mL.

On to B12, for which the “pseudovirus neutralization IC50” value stood at 0.0458 µg/mL.

The target of a further experiment is SARS-CoV-2 Omicron BA.5 spike pseudovirus. Described as above. Here is the method:
as §1
Regarding B1, the “pseudovirus neutralization IC50” value was > 10 µg/mL.

Consider B2, for which the “pseudovirus neutralization IC50” value was > 10 µg/mL.

As to B3, the “pseudovirus neutralization IC50” value came out at 0.0318 µg/mL.

As to B4, the “pseudovirus neutralization IC50” value was > 10 µg/mL.

With B5, the “pseudovirus neutralization IC50” value turned out to be 3.36 µg/mL.

For B6, the “pseudovirus neutralization IC50” value is 2.69 µg/mL.

B7: the “pseudovirus neutralization IC50” value is > 10 µg/mL.

On to B8, for which the “pseudovirus neutralization IC50” value was > 10 µg/mL.

Take B9: the “pseudovirus neutralization IC50” value came to 5.1 µg/mL.

In the case of B10, the “pseudovirus neutralization IC50” value is > 10 µg/mL.

Take B11: the “pseudovirus neutralization IC50” value is 0.258 µg/mL.

As to B12, the “pseudovirus neutralization IC50” value is > 10 µg/mL.

Another experiment deals with SARS-CoV-2 Omicron BQ.1.1 spike pseudovirus. The description is as above. Here is the method:
as §1
In the case of B1, the “pseudovirus neutralization IC50” value was > 10 µg/mL.

For B2, the “pseudovirus neutralization IC50” value is > 10 µg/mL.

Consider B3, for which the “pseudovirus neutralization IC50” value was > 10 µg/mL.

For the molecule B4, the “pseudovirus neutralization IC50” value is > 10 µg/mL.

As to B5, the “pseudovirus neutralization IC50” value was > 10 µg/mL.

B6: the “pseudovirus neutralization IC50” value was > 10 µg/mL.

In the case of B7, the “pseudovirus neutralization IC50” value was > 10 µg/mL.

Turning to B8, the “pseudovirus neutralization IC50” value was > 10 µg/mL.

As for B9, the “pseudovirus neutralization IC50” value is 2.92 µg/mL.

In the case of B10, the “pseudovirus neutralization IC50” value is > 10 µg/mL.

Turning to B11, the “pseudovirus neutralization IC50” value amounted to 1.2 µg/mL.

On to B12, for which the “pseudovirus neutralization IC50” value was > 10 µg/mL.

A further experiment has as its target SARS-CoV-2 Omicron XBB spike pseudovirus. The experiment is described as above. Here is the method:
as §1
As for B1, the “pseudovirus neutralization IC50” value is > 10 µg/mL.

As for B2, the “pseudovirus neutralization IC50” value was > 10 µg/mL.

On to B3, for which the “pseudovirus neutralization IC50” value is > 10 µg/mL.

Take B4: the “pseudovirus neutralization IC50” value is > 10 µg/mL.

As for B5, the “pseudovirus neutralization IC50” value is > 10 µg/mL.

With B6, the “pseudovirus neutralization IC50” value was > 10 µg/mL.

In the case of B7, the “pseudovirus neutralization IC50” value was > 10 µg/mL.

As for B8, the “pseudovirus neutralization IC50” value was > 10 µg/mL.

As for B9, the “pseudovirus neutralization IC50” value was 7.44 µg/mL.

As to B10, the “pseudovirus neutralization IC50” value is > 10 µg/mL.

With B11, the “pseudovirus neutralization IC50” value was > 10 µg/mL.

For the molecule B12, the “pseudovirus neutralization IC50” value was > 10 µg/mL.

In the next experiment the target is SARS-CoV-2 early D614G spike pseudovirus. Described as above. Here is the method: as §1
Take B1: the “pseudovirus neutralization IC50” value was determined as 0.804 µg/mL.

Regarding B2, the “pseudovirus neutralization IC50” value was > 10 µg/mL.

Consider B3, for which the “pseudovirus neutralization IC50” value is 0.0355 µg/mL.

For B4, the “pseudovirus neutralization IC50” value was > 10 µg/mL.

On to B5, for which the “pseudovirus neutralization IC50” value was 0.0127 µg/mL.

B6: the “pseudovirus neutralization IC50” value came to 0.0671 µg/mL.

As to B7, the “pseudovirus neutralization IC50” value came to 0.58 µg/mL.

B8: the “pseudovirus neutralization IC50” value was 4.57 µg/mL.

For the molecule B9, the “pseudovirus neutralization IC50” value was 0.433 µg/mL.

As for B10, the “pseudovirus neutralization IC50” value was 0.776 µg/mL.

On to B11, for which the “pseudovirus neutralization IC50” value turned out to be 0.0268 µg/mL.

Consider B12, for which the “pseudovirus neutralization IC50” value was 0.029 µg/mL.
